Pooled drug test results. Numbers come from NIAID ChemDB, via PubChem.

All rows: tests on isolated targets; organism: HIV-1; target: Reverse transcriptase; read-out: inhibition

Conditions beyond the fields shown may differ between rows.

| smiles | strain or isolate | changes | method | dose | value |
|---|---|---|---|---|---|
| C1=Cc2cccnc2N(C2CC2)c2ncccc21 | - | RT-P236 | nucleotide incorporation | 1 µM | 99% |
| COc1nc(C)nc(N2C(=O)CSC2c2c(Cl)ncnc2Cl)n1 | - | - | RT activity / ELISA / absorbance | 10 µg/mL | 12.24% |
| CC(=O)N(/C=C/c1ccccc1Br)Cc1cc(F)cc(F)c1 | - | - | ELISA | 200 µg/mL | 88.89% |
| CCN1c2ncc(COc3ccc(O)cc3)cc2C(=O)N(C)c2ccc(Cl)nc21 | - | RT-Y188L | RT activity | 1 µM | 13% |
| [Tl+] | - | - | ELISA | 100 µM | 5% |
| Cc1cc(O)c2c(c1Cl)C(=O)C=CC2=O | - | - | RT activity | 50 µg/mL | 56% |
| COc1cc(O)ccc1/C=C/C(=O)c1ccc(O)cc1O | - | - | RT activity / ELISA | 200 µg/mL | 34.01% |
| Cc1cc(Cl)c2c(c1O)C(=O)C=CC2=O | - | - | RT activity | 50 µg/mL | 68% |
| O=C(O)/C=C/c1ccc(O)cc1 | - | - | RT activity / ELISA | 200 µg/mL | 17.88% |
| COc1ccc(/C=C/N(C)C(C)=O)c(OC)c1 | - | - | ELISA | 200 µg/mL | 69.45% |
| O=C1CSC(c2c(Br)cncc2Br)N1n1cnnc1 | - | - | RT activity / ELISA / absorbance | 100 µg/mL | 45.57% |
| CCN1c2ncccc2-c2cnc(C)n2-c2ccc(-c3cn[nH]c3)nc21 | LAV | RT-Y181C | nucleotide incorporation | 1 µM | 88% |
| O=C1CSC(c2c(Cl)ncnc2Cl)N1c1nccs1 | - | - | RT activity / ELISA / absorbance | 10 µg/mL | 3.9% |
| O=[Se]([O-])[O-] | - | - | ELISA | 10 µM | 16% |
| C/C=C/c1occ(C(=O)c2c(OC)cc(OC)cc2C(=O)OC)c(=O)c1OC | - | - | nucleotide incorporation | 100 µM | 0% |
| Oc1cc(O)c2c(c1)O[C@H](c1cc(O)c(O)c(O)c1)[C@H](O)C2 | - | - | - | 10 µg/mL | 0% |
| CC(C)=CCC/C(C)=C/C[C@]12C=C3C(=O)c4c(O)cc(O)c(CC=C(C)C)c4O[C@]34C(C1)C(C)(C)O[C@]4(CC=C(C)C)C2=O | - | - | nucleotide incorporation / radiometric | 200 µg/mL | 95.4% |
| CC(=O)N(C)/C=C/c1ccc(Br)cc1 | - | - | ELISA | 200 µg/mL | 16.59% |
| Cc1ccccc1NC(=O)CCN1CCc2ccccc2C1 | - | - | RT activity / nucleotide incorporation | 40 µM | 44% |
| Cc1cc(O)c2c(c1Br)C(=O)C=CC2=O | - | - | RT activity | 50 µg/mL | 51% |
| Cc1cc(C)nc(N2C(=O)CSC2c2c(Cl)ncnc2Cl)n1 | - | - | RT activity / ELISA / absorbance | 100 µg/mL | 79.97% |
| CCC1=C(C[C@H]2NCCc3cc(OC)c(OC)cc32)C[C@H]2c3cc(OC)c(OC)cc3CCN2C1 | - | - | - | 400 µg/mL | 10–20% |
| O=C(/C=C/c1ccc(O)c(O)c1)O[C@H]1[C@@H]2C=CO[C@@H](OC3OC(CO)C(O)C(O)C3O)[C@@H]2[C@@]2(CO)O[C@@H]12 | MC99 | - | RT activity / fluorescence | 200 µg/mL | 27.3% |
| CC(C)=CCc1c2c(c(O)c3c1O[C@@]14C(=C[C@H]5CC1C(C)(C)O[C@]4(CC=C(C)C)C5=O)C3=O)C=CC(C)(C)O2 | - | - | nucleotide incorporation / radiometric | 200 µg/mL | 94.1% |
| O=C(O[C@@H]1Cc2c(O)cc(O)cc2O[C@@H]1c1ccc(O)c(O)c1)c1cc(O)c(O)c(O)c1 | - | - | - | 10 µg/mL | 0% |
| [O]=[V](=[O])[O-] | - | - | ELISA | 100 µM | 21% |
| CC[C@H]1CN2CCc3cc(OC)c(OC)cc3[C@@H]2C[C@@H]1C[C@H]1NCCc2cc(OC)c(OC)cc21 | - | - | - | 400 µg/mL | 10–20% |
| CC(C)=CCc1c2c(c(O)c3c1O[C@@]14C(=C[C@H]5CC1C(C)(C)O[C@]4(C/C=C(/C)C(=O)O)C5=O)C3=O)C=CC(C)(C)O2 | - | - | nucleotide incorporation / radiometric | 200 µg/mL | 93.4% |
| [Sr+2] | - | - | ELISA | 100 µM | 2% |
| O=c1c(OC2OC(CO)C(O)C(O)C2O)c(-c2ccc(O)c(O)c2)oc2cc(O)cc(O)c12 | MC99 | - | RT activity / fluorescence | 200 µg/mL | 44.2% |
| [O]=[V+2] | - | - | ELISA | 100 µM | 26% |
| O=C1CSC(c2c(Cl)ncnc2Cl)N1c1nc(Cl)cc(Cl)n1 | - | - | RT activity / ELISA / absorbance | 10 µg/mL | 20.73% |
| Cc1ccc2c(c1O)C(=O)C=CC2=O | - | - | RT activity | 100 µg/mL | 100% |
| O=C(/C=C/c1ccc(O)cc1)O[C@H]1[C@@H]2C=CO[C@@H](OC3OC(CO)C(O)C(O)C3O)[C@@H]2[C@@]2(CO)O[C@@H]12 | MC99 | - | RT activity / fluorescence | 200 µg/mL | 12.6% |
| COc1cc2cc3c(c(-c4ccc5c(c4)OCO5)c2cc1OC)COC3=O | - | - | nucleotide incorporation / radiometric | 15 µM | >80% |
| Oc1cc(O)c2c(c1)O[C@H](c1ccc(O)c(O)c1)[C@H](O)C2 | - | - | - | 10 µg/mL | 0% |
| CCN1c2ncc(COc3ccc(F)cc3)cc2C(=O)N(C)c2ccc(Cl)nc21 | - | RT-Y188L | RT activity | 1 µM | 2% |
| O=C1CSC(c2c(F)cccc2F)N1n1cnnc1 | - | - | RT activity / ELISA / absorbance | 100 µg/mL | 47.03% |
| [Al+3] | - | - | ELISA | 100 µM | 8% |
| COc1cc(C)c(Cl)c2c1C(=O)C=CC2=O | - | - | RT activity | 50 µg/mL | 70% |
| Oc1cc(O)c2c(c1)O[C@H](c1cc(O)c(O)c(O)c1)[C@H](O)C2 | LAV | - | - | 0.1 µg/mL | 0% |
| O=C1CSC(c2c(Cl)ncnc2Cl)N1c1ccccn1 | - | - | RT activity / ELISA / absorbance | 100 µg/mL | 30.72% |
| [O]=[W](=[O])([O-])[O-] | - | - | ELISA | 100 µM | 7% |
| COc1cc(OC)nc(N2C(=O)CSC2c2c(Cl)ncnc2Cl)n1 | - | - | RT activity / ELISA / absorbance | 10 µg/mL | 33.18% |
| CCN1c2ncc(CS(=O)(=O)c3ccccc3)cc2C(=O)N(C)c2ccc(Cl)nc21 | - | RT-Y181C | RT activity | 1 µM | 39% |

The last 6 rows once more:

smiles	strain or isolate	changes	method	dose	value
COc1cc(C)c(Cl)c2c1C(=O)C=CC2=O	-	-	RT activity	50 µg/mL	70%
Oc1cc(O)c2c(c1)O[C@H](c1cc(O)c(O)c(O)c1)[C@H](O)C2	LAV	-	-	0.1 µg/mL	0%
O=C1CSC(c2c(Cl)ncnc2Cl)N1c1ccccn1	-	-	RT activity / ELISA / absorbance	100 µg/mL	30.72%
[O]=[W](=[O])([O-])[O-]	-	-	ELISA	100 µM	7%
COc1cc(OC)nc(N2C(=O)CSC2c2c(Cl)ncnc2Cl)n1	-	-	RT activity / ELISA / absorbance	10 µg/mL	33.18%
CCN1c2ncc(CS(=O)(=O)c3ccccc3)cc2C(=O)N(C)c2ccc(Cl)nc21	-	RT-Y181C	RT activity	1 µM	39%

Percent inhibition refers to the dose given; in toxicity tests it is the harm to the cells. a–b is a range or a potency band. An empty or dashed field is not shown.